Replication capacity of HIV-1 mutants, Nef

Data from the supplement of Al-Mawsawi et al. 2014, doi:10.1186/s12977-014-0124-6.

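Random point mutant libraries of HIV-1 NL4-3, one for each of seven fragments, were passaged in CEM T lymphocytes. Sequencing gave the RC index: frequency after two rounds over frequency in the input plasmid.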

Protein: Nef of HIV-1 NL4-3, numbered from its first residue.
From base 9076 on, changes also alter the 3' U3.
Effects on overlapping genes or RNA elements are not listed.

RC index: lower means poorer replication; rough cut-offs are 0.1 (lethal) and 0.2 (tolerated).
Each entry names the wild-type residue, its position and the residue put in its place.
Input reads are the counts in the plasmid library.

- W113G (base T9123G, input reads 110) -> 0.717
- Q107L (base A9106T, input reads 350) -> 0.967
- E93V (base A9064T, input reads 137) -> 0.463
- H166Q (base C9284A, input reads 74) -> 0.916
- N205K (base C9401G, input reads 130) -> 0.727
- H89Q (base C9053G, input reads 50) -> 0.115
- R188L (base G9349T, input reads 175) -> 0.840
- S88C (base A9048T, input reads 276) -> 0.676
- S163R (base A9273C, input reads 63) -> 0.848
- G67C (base G8985T, input reads 188) -> 0.825
- H89R (base A9052G, input reads 370) -> 0.379
- N205Y (base A9399T, input reads 209) -> 0.582
- L170Q (base T9295A, input reads 343) -> 0.745
- H192L (base A9361T, input reads 261) -> 0.783
- F191S (base T9358C, input reads 396) -> 0.776
- R134I (base G9187T, input reads 250) -> 0.589
- H171L (base A9298T, input reads 434) -> 0.553
- F139L (base T9203G, input reads 45) -> 0.840
- A156V (base C9253T, input reads 368) -> 0.910
- L76I (base T9012A, input reads 306) -> 0.705
- Q73P (base A9004C, input reads 67) -> 0.863
- I43V (base A8913G, input reads 170) -> 0.772
- D108N (base G9108A, input reads 229) -> 0.840
- E197V (base A9376T, input reads 194) -> 0.757
- N161D (base A9267G, input reads 253) -> 0.505
- E63D (base G8975T, input reads 249) -> 0.516
- W57R (base T8955A, input reads 368) -> 1.07
- R105G (base A9099G, input reads 431) -> 0.714
- K94N (base G9068T, input reads 192) -> 0.621
- L165S (base T9280C, input reads 264) -> 0.666
- V70I (base G8994A, input reads 301) -> 0.614
- D186E (base C9344G, input reads 198) -> 0.554
- L137V (base C9195G, input reads 154) -> 1.84
- F203S (base T9394C, input reads 425) -> 0.632
- H116Q (base C9134A, input reads 55) -> 0.874
- G67S (base G8985A, input reads 258) -> 0.591
- H171Q (base T9299A, input reads 277) -> 0.814
- W57L (base G8956T, input reads 178) -> 0.674
- R17M (base G8836T, input reads 152) -> 0.309
- E201D (base G9389C, input reads 144) -> 0.575
- M79T (base T9022C, input reads 227) -> 0.298
- M79K (base T9022A, input reads 231) -> 0.556
- H102R (base A9091G, input reads 355) -> 0.775
- G2A (base G8791C, input reads 71) -> 0.273
- K4N (base G8798T, input reads 130) -> 0.937
- T117P (base A9135C, input reads 97) -> 0.892
- R184G (base A9336G, input reads 484) -> 0.642
- K144N (base G9218T, input reads 170) -> 0.767
- R188P (base G9349C, input reads 77) -> 0.987
- G2D (base G8791A, input reads 341) -> 0.321
- A156T (base G9252A, input reads 425) -> 1.11
- H102Q (base C9092G, input reads 93) -> 0.352
- W5R (base T8799A, input reads 394) -> 0.285
- D111E (base T9119A, input reads 264) -> 0.772
- S6T (base T8802A, input reads 279) -> 0.174
- V133G (base T9184G, input reads 40) -> 0.977
- Q125R (base A9160G, input reads 399) -> 0.588
- G140R (base G9204A, input reads 285) -> 0.471
- F139I (base T9201A, input reads 338) -> 0.490
- V66A (base T8983C, input reads 196) -> 0.741
- C142R (base T9210C, input reads 248) -> 0.326
- E149G (base A9232G, input reads 362) -> 0.958
- E93A (base A9064C, input reads 30) -> 0.577
- E177D (base G9317T, input reads 159) -> 0.336
- T71I (base C8998T, input reads 217) -> 0.891

6 of these entries, quoted again:

With R134I (base G9187T, input reads 250) the assay gave 0.589.
With K94N (base G9068T, input reads 192) the assay gave 0.621.
With H89R (base A9052G, input reads 370) the assay gave 0.379.
With G67C (base G8985T, input reads 188) the assay gave 0.825.
With D111E (base T9119A, input reads 264) the assay gave 0.772.
With E201D (base G9389C, input reads 144) the assay gave 0.575.

The authors read an index above 1 as above wild type (1.9% of all changes in the genome).
Clones carried about five changes per kilobase, which can drag down the index of neutral changes.
Nucleotide positions follow pNL4-3.